Reference: US6534523B1, “Hepatitis C inhibitor tri-peptides” (Boehringer Ingelheim (Canada) Ltd., priority 1998, dated 2003)

By UniProt entry, the sequences of proteins in these tests, tags left out. Where a name states a change or a piece, a line headed by the entry shows the natural chain unless it says otherwise. Residues count along the entry.
UniProt P26663, 1027-1206 limits assumed: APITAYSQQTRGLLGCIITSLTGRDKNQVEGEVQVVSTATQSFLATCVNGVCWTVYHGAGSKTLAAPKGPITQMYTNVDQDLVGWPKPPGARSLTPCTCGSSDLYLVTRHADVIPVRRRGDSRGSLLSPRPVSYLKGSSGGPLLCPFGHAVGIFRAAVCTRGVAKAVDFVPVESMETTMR

Target: HCV NS3 protease (UniProt P26663)
Protocol: Recombinant HCV NS3 Protease/NS4A Cofactor Peptide Radiometric Assay
The enzyme was cloned, expressed and prepared according to the protocol described in Example 36. The enzyme was stored at −80° C., thawed on ice and diluted just prior to use in the assay buffer containing the NS4A cofactor peptide.
The substrate used for the NS3 protease/NS4A cofactor peptide radiometric assay, DDIVPC-SMSYTW, is cleaved between the cysteine and the serine residues by the enzyme. The sequence DDIVPC-SMSYTW corresponds to the NS5A/NS5B natural cleavage site in which the cysteine residue in P2 has been substituted for a proline. The peptide substrate DDIVPC-SMSYTW and the tracer biotin-DDIVPC-SMS[^125I-Y]TW are incubated with the recombinant NS3 protease and the NS4A peptide cofactor KKGSVVIVGRIILSGRK (molar ratio enzyme:cofactor 1:100) in the absence or presence of inhibitors. The separation of substrate from products is performed by adding avidin-coated agarose beads to the assay mixture followed by filtration. The amount of SMS[^125I-Y]TW product found in the filtrate allows for the calculation of the percentage of substrate conversion and of the percentage of inhibition.
The enzymatic reaction was initiated by the addition of the enzyme/NS4A peptide solution and the assay mixture was incubated for 40 min at 23° C. under gentle agitation. Ten (10) μL of 0.5N NaOH were added and 10 μL 1 M MES, pH 5.8 were added to quench the enzymatic reaction. […]
The NS2-NS5B-3′ non coding region was cloned by RT-PCR into the pCR®3 vector (Invitrogen) using RNA extracted from the serum of an HCV genotype 1b infected individual (provided by Dr. Bernard Willems, Hôpital St-Luc, Montréal, Québec, Canada). […] Fluorescence of the N-terminal product was monitored on a Perkin-Elmer LS-50B fluorometer equipped with a 96-well plate reader (excitation wavelength: 325 nm; emission wavelength: 423 nm). […]

| SMILES | pIC50 (Table 6) | pIC50 (Table 8) |
| --- | --- | --- |
| C=CC1CC1(NC(=O)C1CC(Oc2cc(CN(C)c3ccccc3)nc3ccccc23)CN1C(=O)C(NC(=O)OC(C)(C)C)C(C)(C)C)C(=O)O (stereo not drawn) | 5.52 |  |
| C=CC1CC1(NC(=O)C1CC(Oc2cc(N3CCN(C)CC3)nc3ccccc23)CN1C(=O)C(NC(=O)OC(C)(C)C)C(C)(C)C)C(=O)O (stereo not drawn) | 6.14 |  |
| C=CC1CC1(NC(=O)C1CC(Oc2cc(-c3ccccc3)nc3cc(OC)ccc23)CN1C(=O)C(NC(=O)CC(C)(C)C)C(C)(C)C)C(=O)O (stereo not drawn) |  | 6.92 |

pIC50: −log10 of the molar value. Like-named read-outs stand apart in the source and are kept apart here. The match of structure and compound is tentative.
